Results of unrelated studies side by side (data: NIAID ChemDB).

Shared fields: target-level tests; species: HIV-1; protein: Reverse transcriptase; read-out: IC50

a–b is a range or a potency band.

structure | strain | changes | method | result
CCCN1C(=O)c2cc(Cl)nnc2N(C2CC2)c2ccccc21 | - | - | - | <330 µM
O=C(NCCc1ccccc1)Nc1cnccn1 | - | - | nucleotide incorporation | >10 µg/mL
Cc1ccc(C(=O)Nc2ccc(S(=O)(=O)O)c3cc(S(=O)(=O)O)cc(S(=O)(=O)O)c23)cc1NC(=O)c1cccc(NC(=O)c2ccc(C(=O)Nc3cccc(C(=O)Nc4cc(C(=O)Nc5ccc(S(=O)(=O)O)c6cc(S(=O)(=O)O)cc(S(=O)(=O)O)c56)ccc4C)c3)cc2)c1 | IIIB | - | nucleotide incorporation | 39 µg/mL
CC(C)c1cnc(C2C=C(c3ccccc3O)N=C(N)S2)cn1 | - | - | RT activity / ELISA / absorbance | 67.21 µM
CC(C)=CCN1Cc2cccc3[nH]c(=S)n(c23)C[C@@H]1C | - | RT-Y188L | nucleotide incorporation | >330 µM
CCN1c2ncc(CCOc3ccc(-n4nc(C(=O)O)cc4C)cc3C)cc2C(=O)N(C)c2cccnc21 | IIIB | RT-K103N Y181C | nucleotide incorporation / radiometric | >0.1 µM
Cc1ccc(C(=O)Nc2cc(S(=O)(=O)O)ccc2S(=O)(=O)O)cc1NC(=O)c1cccc(NC(=O)Nc2cccc(C(=O)Nc3cc(C(=O)Nc4cc(S(=O)(=O)O)ccc4S(=O)(=O)O)ccc3C)c2)c1 | IIIB | - | nucleotide incorporation | 41 µg/mL
CCN1c2ncc(CCOc3ccc(-c4nn[nH]n4)cc3C)cc2C(=O)N(C)c2cccnc21 | IIIB | - | nucleotide incorporation / radiometric | <0.05 µM
CCCN1c2ccccc2N(C)C(=O)c2ccnnc21 | - | - | - | <330 µM
N#Cc1cnc2c(Cl)cccc2c1Nc1ccc(F)cc1 | - | - | RT activity / fluorescence | ≤12 µM
COc1cccc(C2=CC(c3cnc(C(C)C)cn3)SC(N)=N2)c1 | - | - | RT activity / ELISA / absorbance | >100 µM
CCCN1C(=O)c2ccnnc2N(CCC)c2ccc(C)cc21 | - | - | - | >330 µM
CC(C)c1cnc(C2C=C(c3ccc([N+](=O)[O-])cc3)N=C(N)S2)cn1 | - | - | RT activity / ELISA / absorbance | 3.26 µM
O=C(NCCc1ccccc1)Nc1nc(-c2ccc(Br)cc2)cs1 | - | - | nucleotide incorporation | >10 µg/mL
Cc1ccc(C(=O)Nc2ccc(S(=O)(=O)O)c3cc(S(=O)(=O)O)cc(S(=O)(=O)O)c23)cc1NC(=O)Nc1cc(C(=O)Nc2ccc(S(=O)(=O)O)c3cc(S(=O)(=O)O)cc(S(=O)(=O)O)c23)ccc1C | IIIB | - | nucleotide incorporation | 45 µg/mL
CC(C)(O/N=C(\C(=O)NCC(O)O)c1csc(N)n1)C(=O)O | - | - | RT activity | <50 µg/mL
O=C(Nc1ccc(C(=O)Nc2ccc(P(=O)(O)O)cc2)cc1)Nc1ccc(C(=O)Nc2ccc(P(=O)(O)O)cc2)cc1 | IIIB | - | nucleotide incorporation | 100 µg/mL
CCN1C(=O)c2ccnnc2N(C2CC2)c2ccccc21 | - | - | - | <330 µM
O=C(NCCc1ccccc1)Nc1ncccn1 | - | - | nucleotide incorporation | >10 µg/mL
CCN1c2ncc(CCOc3ccc(-c4ccc(C(=O)O)s4)cc3)cc2C(=O)N(C)c2cccnc21 | IIIB | RT-K103N Y181C | nucleotide incorporation / radiometric | 0.05–0.1 µM
CCN1C(=O)c2cc(Cl)nnc2N(CC)c2ccc(C)cc21 | - | - | - | ~330 µM
Cc1cc(C)c(C(=O)Nc2ccc(S(=O)(=O)O)c3cc(S(=O)(=O)O)cc(S(=O)(=O)O)c23)c(C)c1NC(=O)c1cccc(NC(=O)Nc2cccc(C(=O)Nc3c(C)cc(C)c(C(=O)Nc4ccc(S(=O)(=O)O)c5cc(S(=O)(=O)O)cc(S(=O)(=O)O)c45)c3C)c2)c1 | IIIB | - | nucleotide incorporation | 42 µg/mL
N#Cc1cnc2c(F)cccc2c1Nc1ccc(Cl)cc1 | - | - | RT activity / fluorescence | ≤12 µM
CCN1c2ncc(CCOc3ccc(C(=O)NNCC(=O)O)cc3C)cc2C(=O)N(C)c2cccnc21 | IIIB | - | nucleotide incorporation / radiometric | <0.05 µM
N#Cc1cnc2c(F)cccc2c1Nc1ccccc1 | - | - | RT activity / fluorescence | <8 µM
CCCN1c2ccc(C)cc2N(C)C(=O)c2cc(Cl)nnc21 | - | - | - | >330 µM
O=C(Nc1cccc(-c2ccc(C(=O)Nc3ccc(S(=O)(=O)O)c4cc(S(=O)(=O)O)cc(S(=O)(=O)O)c34)cc2)c1)Nc1cccc(-c2ccc(C(=O)Nc3ccc(S(=O)(=O)O)c4cc(S(=O)(=O)O)cc(S(=O)(=O)O)c34)cc2)c1 | IIIB | - | nucleotide incorporation | 52 µg/mL
CCCN1C(=O)c2ccnnc2N(CC)c2ccc(C)cc21 | - | - | - | <330 µM
O=C(NCCc1ccccc1)Nc1nc2ccc(F)cc2s1 | - | - | nucleotide incorporation | >10 µg/mL
N#Cc1cnc2c(F)cccc2c1Nc1ccc(F)cc1 | - | - | RT activity / fluorescence | ≥50 µM
Cc1ccc(C(=O)Nc2ccc(S(=O)(=O)O)c3cc(S(=O)(=O)O)cc(S(=O)(=O)O)c23)cc1NC(=O)c1ccc(NC(=O)Nc2ccc(C(=O)Nc3cc(C(=O)Nc4ccc(S(=O)(=O)O)c5cc(S(=O)(=O)O)cc(S(=O)(=O)O)c45)ccc3C)cc2)cc1 | IIIB | - | nucleotide incorporation | 100 µg/mL
N#Cc1cnc2c(F)cccc2c1Nc1ccc(Br)cc1 | - | - | RT activity / fluorescence | ≤10 µM
CC(C)c1cnc(C2C=C(c3cccc(Cl)c3)N=C(N)S2)cn1 | - | - | RT activity / ELISA / absorbance | 39.15 µM
N#Cc1cnc2c(F)cccc2c1Nc1cccc(Cl)c1 | - | - | RT activity / fluorescence | ≤12 µM
Cc1ccc(S(=O)(=O)n2c(=O)[nH]c3ccc(Cl)cc32)cc1C | - | Wild type | nucleotide incorporation | 0.004 µM
N#Cc1cnc2c(F)cccc2c1Nc1cccc(Br)c1 | - | - | RT activity / fluorescence | ≤12 µM
CN1C(=O)c2cc(-n3ccnc3)nnc2N(C2CC2)c2ccccc21 | - | - | - | >330 µM

The first 5 rows once more:

structure | strain | changes | method | result
CCCN1C(=O)c2cc(Cl)nnc2N(C2CC2)c2ccccc21 | - | - | - | <330 µM
O=C(NCCc1ccccc1)Nc1cnccn1 | - | - | nucleotide incorporation | >10 µg/mL
Cc1ccc(C(=O)Nc2ccc(S(=O)(=O)O)c3cc(S(=O)(=O)O)cc(S(=O)(=O)O)c23)cc1NC(=O)c1cccc(NC(=O)c2ccc(C(=O)Nc3cccc(C(=O)Nc4cc(C(=O)Nc5ccc(S(=O)(=O)O)c6cc(S(=O)(=O)O)cc(S(=O)(=O)O)c56)ccc4C)c3)cc2)c1 | IIIB | - | nucleotide incorporation | 39 µg/mL
CC(C)c1cnc(C2C=C(c3ccccc3O)N=C(N)S2)cn1 | - | - | RT activity / ELISA / absorbance | 67.21 µM
CC(C)=CCN1Cc2cccc3[nH]c(=S)n(c23)C[C@@H]1C | - | RT-Y188L | nucleotide incorporation | >330 µM

Conditions beyond the fields shown may differ between rows. Blank or dashed fields: not listed here. ICn: concentration for n% inhibition.